Pooled drug test results. Numbers come from NIAID ChemDB, via PubChem.

All rows: growth or infection tests; species: Mycobacterium smegmatis; endpoint: MIC

Conditions beyond the fields shown may differ between rows.

structure	strain	result
CC1CN(c2c(F)cc3c(=O)c(C(=O)O)cn(C4CC4)c3c2C(F)(F)F)CCN1	ATCC 19420	2 µg/mL
O=[N+]([O-])[O][Ga]([O][N+](=O)[O-])[O][N+](=O)[O-]	LR222	400 µM
CNCC1COC2(CCN(c3c(F)cn4c(=O)c(C(=O)O)cc(C5CC5)c4c3C)CC2)O1.Cl	ATCC114	6.2 µg/mL
CC1CN(c2c(F)cc3c(=O)c(C(=O)O)cn(C4CC4)c3c2Br)CC(C)N1	ATCC 19420	0.13 µg/mL
Cc1c(N2CCC(c3ccccn3)C2)c(F)cn2c(=O)c(C(=O)O)cc(C3CC3)c12.Cl	ATCC114	0.78 µg/mL
C=CC1=C(C)C2=Cc3c(C=C)c(C)c4[n]3[In][n]3c(c(C)c(CCC(=O)O)c3=CC3=NC(=C4)C(C)=C3CCC(=O)O)=CC1=N2	LR222	0.4 µg/mL
CC(=O)O[C@@H]1CC(=O)O[C@H](C)C[C@@H]2O[C@@H]2/C=C/C(=O)[C@H](C)C[C@H](CC=O)[C@H](OC2OC(C)C(OC3CC(C)(O)C(OC(=O)CC(C)C)C(C)O3)C(N(C)C)C2O)[C@H]1O	mc2155	12.5 µM
CC1CN(c2c(F)cc3c(=O)c(C(=O)O)cn(C4CC4)c3c2Cl)CCN1	ATCC 19420	0.13 µg/mL
CCC(CO)NCC(C)NC(CC)CO	ATCC 607	250 µg/mL
Cc1c(N)nc([C@H](CC(N)=O)NC[C@H](N)C(N)=O)nc1C(=O)N[C@H](C(=O)N[C@H](C)[C@@H](O)[C@H](C)C(=O)N[C@H](C(=O)NCCc1nc(-c2nc(C(=O)NCCC[S+](C)C)cs2)cs1)[C@@H](C)O)C(O[C@@H]1O[C@@H](CO)[C@@H](O)[C@H](O)[C@@H]1O[C@H]1O[C@H](CO)[C@@H](O)[C@H](OC(N)=O)[C@@H]1O)c1cnc[nH]1	mc2155	3.125 µM
CC[C@H](CO)NCCN[C@@H](CC)CO.Cl.Cl	ATCC 607	8 µg/mL
C1=CC2=NC1=Cc1ccc3[n]1[Ga][n]1c(ccc1=CC1=NC(=C3)C=C1)=C2	LR222	5 µg/mL
CCC(CO)N(CC)CCNC(C)C	ATCC 607	250 µg/mL
O=C1c2cccnc2-c2nccc3c2c1nc1cc(Br)ccc13	mc2155	3.125 µM
NC1CCN(c2c(F)cc3c(=O)c(C(=O)O)cn(C4CC4)c3c2C(F)(F)F)C1	ATCC 19420	0.25 µg/mL
C[C@H]1NCc2cc(-c3ccc4c(=O)c(C(=O)O)cn(C5CC5)c4c3OC(F)F)ccc21	A24001	0.13 µg/mL
CCC(CO)N(CC)CCN(CC)C(CC)CO	ATCC 607	15 µg/mL
CC[C@H](N)[C@@H]1CCN(c2c(F)cn3c(=O)c(C(=O)O)cc(C4CC4)c3c2C)C1.Cl	ATCC114	0.02 µg/mL
O[C@@H]1CCCCC1NCCNC1CCCC[C@@H]1O	ATCC 607	250 µg/mL
COC(=O)N[C@H]1[C@@H](C)O[C@@H](O[C@H]2C/C=C(\C)C3C=CC4C([C@@H](C)C[C@H](O[C@@H]5C[C@H](C)[C@H](O)[C@@](O)(C6C[C@@H](O)[C@H](O[C@H]7CC[C@@H](OC)[C@H](C)O7)[C@H](C)O6)C5)[C@@H]4O)[C@]3(C)C(O)=C3C(=O)OC4(CC(C=C(CO)[C@@H]4C)/C=C/2C)C3=O)C[C@]1(C)[N+](=O)[O-]	mc2155	50 µM
CN(C)[C@@H]1C(=O)C(C(N)=O)=C(O)[C@@]2(O)C(=O)C3=C(O)c4c(O)cccc4[C@@](C)(O)[C@H]3C[C@@H]12	PSB51 LFR (CCCP)	0.5 µg/mL
CN(/N=C/c1ccccc1O)c1ccc2ccccc2n1	mc2155	>100 µM
CCCCCCCCCCCCCCCC[N+](C)(C)CC	PMN1 LFR	16 µg/mL
Cc1c(N2CCOCC2CN)c(F)cn2c(=O)c(C(=O)O)cc(C3CC3)c12.Cl	ATCC114	0.05 µg/mL
c1ccc(/C(=N/Nc2nc3ccccc3s2)c2ccccn2)cc1	mc2155	>100 µM
CN1CCN(c2c(F)cc3c(=O)c(C(=O)O)cn(C4CC4)c3c2Br)CC1	ATCC 19420	0.13 µg/mL
Cc1c(F)c(N2CCC(N)C2)cc2c(C3CC3)cc(C(=O)O)c(=O)n12.Cl	ATCC114	1.56 µg/mL
O=[N+]([O-])c1cccc(/C=N/Nc2ccc3ccccc3n2)c1O	mc2155	>100 µM
CCCc1c(CC)c2[n]3c1C=C1N=C(C=c4c(CC)c(CC)c([n]4[Ga]3)=CC3=NC(=C2)C(CC)=C3CC)C(CC)=C1CC	LR222	5 µg/mL
CCN1CCN(c2nc3c(cc2F)c(=O)c(C(=O)O)cn3CC)CC1	ATCC 19420	2 µg/mL
C[N+](C)(CCCCCC[N+](C)(C)CCCN1C(=O)c2cccc3cccc(c23)C1=O)CCCN1C(=O)c2cccc3cccc(c23)C1=O	mc2155	12.5 µM

2 of the rows above, restated:

| structure | strain | result |
|---|---|---|
| C=CC1=C(C)C2=Cc3c(C=C)c(C)c4[n]3[In][n]3c(c(C)c(CCC(=O)O)c3=CC3=NC(=C4)C(C)=C3CCC(=O)O)=CC1=N2 | LR222 | 0.4 µg/mL |
| CC[C@H](CO)NCCN[C@@H](CC)CO.Cl.Cl | ATCC 607 | 8 µg/mL |